Experimental findings from doi:10.1101/2024.10.27.620470 (bioRxiv, 2024) are described below.

In experiment [1] the target is T1, mutant N_(128-138) peptide 3 (KAGIIAAATEG) (SARS-CoV-2).
T1 peptide: KAGIIAAATEG
Kind of experiment: ITC.

The target of experiment [2] is T2, mutant N_(128-138) peptide 2 (KDGIIAAATEG) (SARS-CoV-2).
T2 peptide: KDGIIAAATEG
Kind of experiment: ITC. (In general: Isothermal titration calorimetry measures the heat released or taken up as one component is titrated into another.)

B1: NTF2-like domain of Ras GTPase-activating protein SH3-domain-binding protein 1 (G3BP1_(NTF-2)) (domain or fragment)
chain: MVMEKPSPLLVGREFVRQYYTLLNQAPDMLHRFYGKNSSYVHGGLDSNGKPADAVYGQKEIHRKVMSQNFTNCHTKIRHVDAHATLNDGVVVQVMGLLSNNNQALRRFMQTFVLAPEGSVANKFYVHNDIFRYQDEVFG
As to B1, the “fold reduction against native N_(128-138) peptide 1” value is 60 fold in experiment [1] and 16 fold in experiment [2].
